{"source": "paper PMC5056392", "about": "“CD4-mimetic sulfopeptide conjugates display sub-nanomolar anti-HIV-1 activity and protect macaques against a SHIV162P3 vaginal challenge” (Scientific Reports, 2016)", "key": {"TZM-bl cells": {"system": "TZM-bl cells", "experiment": "WST-1 cytotoxicity assay", "assay_type": "cell-based", "conditions": "Table 2, 50% cytotoxic concentration, WST-1, 48 h", "procedure": "The water soluble tetrazolium-1 (WST-1) cell proliferation assay is based on the cleavage of the tetrazolium salt WST-1 to a formazan dye by a complex cellular mechanism. Because this bioreduction is dependent on the glycolytic production of NAD(P)H in viable cells, the amount of formazan dye formed is correlates directly to the number of viable cells in a culture. Quantification is done by measuring absorbance at 450 nm in a multiwell plate reader. TZMbl cells (10^4 cells/well) were plated in a 96-well plate and a serial dilution of compound was added. 48 h later, cell proliferation reagent was added and cell viability was measured compared to untreated control cultures. Cell viability was plotted against the compound concentration and non-linear regression analysis was performed to calculate the 50% cytotoxic concentration (CC50)."}, "HIV-1 VI829": {"system": "HIV-1 VI829", "assay_type": "cell-based", "conditions": "Table 2; C-R5; 10^-3 MOI, TZM-bl cells, 48 h; mean of at least 2 independent experiments, triplicates", "procedure": "(§1) The IC50 of the various mCD4-conjugates were measured in TZM-bl cells (NIH AIDS Reagent Program, Germantown, MD 20874, US). This cell line expresses high densities of CD4, CCR5 and CXCR4. It contains a luciferase reporter gene under control of HIV LTR, which will be transcribed and translated into luciferase protein, if the cells get infected with HIV and start producing Tat. Briefly, 50 μl of TZM-bl cells (1 × 10^5 cells/mL) supplemented with 30 μg/mL DEAE dextran were incubated with a 50 μl of a 10-fold serial dilution of the compounds under investigation in 96-well flat bottom plates, prior to inoculation with 50 μl of various viruses (see Tables & and 2; 50, 100 or 200 TCID50 was used depending on the virus). As a positive control, 50 μl of compound-free medium was used and as a negative control, 100 μl of medium was added to 100 μl of TZM-bl cells. All conditions were done in triplicates. The plates were incubated for 48 hours (37 °C, 5% CO2). Subsequently, 120 μL of supernatants were removed, 75 μl of the luciferase substrate Steadylite (Perkin Elmer, Life Sciences, Zaventem, Belgium) were added to the wells and the plates were incubated at room temperature on an orbital shaker for 10 minutes. Next, the luciferase activity was measured using a TriStar LB941 luminometer (Berthold Technologies GmbH & Co. KG., Bad Wildbad, Germany) and expressed in relative light units (RLU) as a percentage of positive control wells. IC50 were calculated in GraphPad Prism 5.03 using non-linear regression (GraphPad Software, San Diego, CA, USA)."}, "HIV-1 MP568 (CRF02)": {"system": "HIV-1 MP568 (CRF02)", "assay_type": "cell-based", "conditions": "Table 2; AG-R5; 10^-3 MOI, TZM-bl cells, 48 h; mean of at least 2 independent experiments, triplicates", "procedure": "as §1"}, "HIV-1 MN": {"system": "HIV-1 MN", "assay_type": "cell-based", "conditions": "Table 2; B-X4; 10^-3 MOI, TZM-bl cells, 48 h; mean of at least 2 independent experiments, triplicates", "procedure": "as §1"}, "HIV-1 IIIB": {"system": "HIV-1 IIIB", "assay_type": "cell-based", "procedure": "as §1"}, "HIV-1 VI1888 (CRF01)": {"system": "HIV-1 VI1888 (CRF01)", "assay_type": "cell-based", "conditions": "Table 2; AE-R5; 10^-3 MOI, TZM-bl cells, 48 h; mean of at least 2 independent experiments, triplicates", "procedure": "as §1"}, "HIV-1 VI824": {"system": "HIV-1 VI824", "assay_type": "cell-based", "conditions": "Table 2; D-R5; 10^-3 MOI, TZM-bl cells, 48 h; mean of at least 2 independent experiments, triplicates", "procedure": "as §1"}, "HIV-1 pWITO.c/2474": {"system": "HIV-1 pWITO.c/2474", "assay_type": "cell-based", "conditions": "Table 2; T/F B-R5; 10^-3 MOI, TZM-bl cells, 48 h; mean of at least 2 independent experiments, triplicates", "procedure": "as §1"}, "HIV-1 Ca10-3 (CRF01)": {"system": "HIV-1 Ca10-3 (CRF01)", "assay_type": "cell-based", "conditions": "Table 2; AE-X4; 10^-3 MOI, TZM-bl cells, 48 h; mean of at least 2 independent experiments, triplicates", "procedure": "as §1"}, "HIV-1 pTHRO.c/2626": {"system": "HIV-1 pTHRO.c/2626", "assay_type": "cell-based", "conditions": "Table 2; T/F B-R5; 10^-3 MOI, TZM-bl cells, 48 h; mean of at least 2 independent experiments, triplicates", "procedure": "as §1"}, "HIV-1 pZM247Fv2": {"system": "HIV-1 pZM247Fv2", "assay_type": "cell-based", "conditions": "Table 2; T/F C-R5; 10^-3 MOI, TZM-bl cells, 48 h; mean of at least 2 independent experiments, triplicates", "procedure": "as §1"}, "HIV-1 SF162": {"system": "HIV-1 SF162", "assay_type": "cell-based", "conditions": "Table 2; B-R5; 10^-3 MOI, TZM-bl cells, 48 h; mean of at least 2 independent experiments, triplicates", "procedure": "as §1"}, "HIV-1 Bal": {"system": "HIV-1 Bal", "assay_type": "cell-based", "procedure": "as §1"}, "HIV-1 p246F10": {"system": "HIV-1 p246F10", "assay_type": "cell-based", "conditions": "Table 2; T/F C-R5; 10^-3 MOI, TZM-bl cells, 48 h; mean of at least 2 independent experiments, triplicates", "procedure": "as §1"}, "HIV-1 pREJO.c/2864 cl2": {"system": "HIV-1 pREJO.c/2864 cl2", "assay_type": "cell-based", "conditions": "Table 2; T/F B-R5; 10^-3 MOI, TZM-bl cells, 48 h; mean of at least 2 independent experiments, triplicates", "procedure": "as §1"}, "HIV-1 VI820": {"system": "HIV-1 VI820", "assay_type": "cell-based", "conditions": "Table 2; A-X4R5; 10^-3 MOI, TZM-bl cells, 48 h; mean of at least 2 independent experiments, triplicates", "procedure": "as §1"}, "SHIV162P3": {"system": "SHIV162P3", "assay_type": "cell-based, SHIV", "conditions": "Table 2; B-R5; 10^-3 MOI, TZM-bl cells, 48 h; mean of at least 2 independent experiments, triplicates", "procedure": "as §1"}, "[1]": {"system": "HIV-1 Env CD4 binding site", "experiment": "HIV-1 Env surface levels (3BNC117 staining of infected cells)", "assay_type": "cell-based", "conditions": "CEM-NKR cells infected with HIV-1 NL4.3, 1 μM, 10 min at 37 °C, flow cytometry", "procedure": "(§2) Primary CD4^+ T cells were purified from human peripheral blood by positive selection (Miltenyi). About 98% of cells were CD4^+CD3^+. For activation, primary T cells were treated with PHA (1 μg/ml) for 24 h and then cultured with IL-2 (50 IU/ml) for 3–5 days before use. Primary cells were infected with HIV-1 NL4-3 and NLAD8 as described. Donor cells were used a few days later, when about 20% of the cells were Gag^+. Target cells were labeled with FarRed (2.5 μM; Molecular Probes). Donors were preincubated 1 h with the indicated doses of compounds. Donor and target cells were then mixed at a 1:2 ratio in 96-well plates at a final a concentration of 1.5 × 10^6/ml in 200 μl, in duplicates. After 48 or 72 h, cells were stained for intracellular Gag (KC57 mAb, Coulter) and analyzed by flow cytometry. When used, mCD4 or mCD4-conjugates were added 1 h before coculture. Measurement of the levels of Env epitopes at the surface of infected cells with 3BNC117 was performed by flow cytometry as previously described."}, "HIV-1 NL4.3": {"system": "HIV-1 NL4.3", "assay_type": "cell-based", "conditions": "primary CD4 T cells infected with NL4.3, co-culture with autologous target cells, Gag+ targets by flow cytometry", "procedure": "as §2"}, "[2]": {"conditions": "mCD4.2-PS1 (K5 coupling) versus M48U1-PS1 (K11 coupling)"}}, "note": "Where two headings read alike, the source gives them in different places.", "data": [{"smiles": "CC(C)C[C@@H]1NC(=O)CNC(=O)[C@H](CC(C)C)NC(=O)[C@H](CO)NC(=O)[C@H](CO)NC(=O)[C@@H]2CSSC[C@@H](C(=O)N[C@H](C(N)=O)C(C)C)NC(=O)[C@H](C)NC(=O)[C@@H]3CSSC[C@H](NC(=O)[C@H](CCCCNC(=O)CCOCCOCCNC(=O)CCN4C(=O)CC(SCCC(=O)NCCCC(=O)N[C@@H](CO)C(=O)N[C@@H](Cc5ccc(OS(=O)(=O)O)cc5)C(=O)N[C@@H](CC(=O)O)C(=O)N[C@@H](Cc5ccc(OS(=O)(=O)O)cc5)C(=O)N[C@@H](CO)C(=O)N[C@@H](Cc5ccc(OS(=O)(=O)O)cc5)C(=O)N[C@@H](CC(=O)O)C(=O)N[C@@H](Cc5ccc(OS(=O)(=O)O)cc5)C(=O)N[C@@H](CO)C(=O)N[C@@H](Cc5ccc(OS(=O)(=O)O)cc5)C(=O)N[C@@H](CC(=O)O)C(=O)N[C@@H](Cc5ccc(OS(=O)(=O)O)cc5)C(=O)N[C@@H](CO)C(=O)O)C4=O)NC(=O)[C@H](Cc4c[nH]cn4)NC(=O)[C@H](CC(C)C)NC(=O)[C@H](CC(N)=O)NC(=O)CCSSC[C@H](NC(=O)[C@H](CCCNC(=N)N)NC(=O)CNC(=O)[C@H](CC(C)C)NC1=O)C(=O)N[C@@H](C)C(=O)N1CCC[C@@H]1C(=O)N[C@@H]([C@@H](C)O)C(=O)N[C@@H](Cc1ccc(OCC4CCCCC4)cc1)C(=O)N3)C(=O)N[C@@H](CCC(N)=O)C(=O)N[C@@H](CC(C)C)C(=O)N[C@@H](CCCNC(=N)N)C(=O)N2", "note": "(stereo partly shown) [mCD4.2-PS1]", "values": [{"measurement": "CC50", "setting": "TZM-bl cells", "value": ">50000", "unit": "nM"}, {"measurement": "IC50", "setting": "HIV-1 VI829", "value": 4, "unit": "nM"}, {"measurement": "IC50", "setting": "HIV-1 MP568 (CRF02)", "value": 4.9, "unit": "nM"}, {"measurement": "IC50", "setting": "HIV-1 MN", "value": 0.046, "unit": "nM"}, {"measurement": "IC50", "setting": "HIV-1 IIIB; Table 2, B-X4, 10^-3 MOI, TZM-bl cells, 48 h, mean of at least 2 independent experiments, triplicates", "value": 0.0073, "unit": "nM"}, {"measurement": "activity fold increase, IIIB", "setting": "HIV-1 IIIB; [2]", "value": 2.8}, {"measurement": "IC50", "setting": "HIV-1 VI1888 (CRF01)", "value": 1060, "unit": "nM"}, {"measurement": "IC50", "setting": "HIV-1 VI824", "value": 0.68, "unit": "nM"}, {"measurement": "IC50", "setting": "HIV-1 pWITO.c/2474", "value": 1.3, "unit": "nM"}, {"measurement": "IC50", "setting": "HIV-1 Ca10-3 (CRF01)", "value": 0.12, "unit": "nM"}, {"measurement": "IC50", "setting": "HIV-1 pTHRO.c/2626", "value": 8.9, "unit": "nM"}, {"measurement": "IC50", "setting": "HIV-1 pZM247Fv2", "value": 206, "unit": "nM"}, {"measurement": "IC50", "setting": "HIV-1 SF162", "value": 0.01, "unit": "nM"}, {"measurement": "IC50", "setting": "HIV-1 Bal; Table 2, B-R5, 10^-3 MOI, TZM-bl cells, 48 h, mean of at least 2 independent experiments, triplicates", "value": 0.035, "unit": "nM"}, {"measurement": "activity fold increase, Bal", "setting": "HIV-1 Bal; [2]", "value": 3.8}, {"measurement": "IC50", "setting": "HIV-1 p246F10", "value": 58, "unit": "nM"}, {"measurement": "IC50", "setting": "HIV-1 pREJO.c/2864 cl2", "value": 0.28, "unit": "nM"}, {"measurement": "IC50", "setting": "HIV-1 VI820", "value": 0.031, "unit": "nM"}, {"measurement": "IC50", "setting": "SHIV162P3", "value": 2.2, "unit": "nM"}, {"measurement": "binding of 3BNC117 bNAb to cell-surface Env", "setting": "[1]", "value": "strongly inhibited"}, {"measurement": "IC50", "setting": "HIV-1 NL4.3; 48 h, read-out: IC50 (nM) 48h, cell-cell transmission", "value": 0.1, "unit": "nM"}, {"measurement": "IC50", "setting": "HIV-1 NL4.3; 72 h, read-out: IC50 (nM) 72h, cell-cell transmission", "value": 0.2, "unit": "nM"}]}]}
